This note sets out measurements from PubChem BioAssay AID1066 (SRMLSC, 2008).

SMILES strings stand for the structures. The list shows a part of the results, in another mix than the full data. The source made the active and inactive calls.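 Rule for the calls: active = inhibition above a set limit, the median over all tested compounds plus 3 SD (cut at about 9.5% in these data); inconclusive = no clear call, values can overlap the other calls; inactive = the rest.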

This assay has as its system HMG-CoA reductase (Enterococcus faecalis, mvaE). Kind of assay: inhibitors of E. faecalis class II HMGR, primary screen, biochemical, Enterococcus faecalis (AID 1066).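 Note: enzyme runs in reverse so mevalonate oxidation gives rising NADPH absorbance; 0% = complete reaction with DMSO and 100% = background rate lacking mevalonate.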 Conditions: purified E. faecalis HMGR, NADPH absorbance 340 nm kinetic; at 10 µM; hits give high values.
A word on the inhibition: it is the drop in the measured response relative to a control, in per cent. Consider `COc1ccc(C(=O)NCC2(N3CCOCC3)CCCCC2)cc1OC`, for which the inhibition is inactive: -6.75%. As for `O=C(OC1CN2CCC1CC2)C1c2ccccc2C=Cc2ccccc21` (stereo not given), the figure is inactive: 2%. `N/C(=N\O)c1c(N)no[n+]1[O-]`: the inhibition was inactive: 2.46%. As for `N#Cc1ccc(C(=O)NCC2(N3CCCCC3)CCCCC2)cc1`, the figure is inactive: -4.66%; as for `c1ccc(CN2CCC(Nc3ccccc3)CC2)cc1`, inactive: -0.07%.

In the case of `Fc1ccccc1NC1CCN(Cc2ccccc2)CC1`, the inhibition is inactive: -2.88%. `CN(C)c1ccc(C(=O)NCC2(N3CCCCC3)CCCCC2)cc1`: the inhibition is inactive: -1.02%. In the case of `CCN1CCC(Nc2cccc(F)c2)CC1` it was inactive: -4.82%; in that of `CC(C)(C)OC(=O)N1CCC(Nc2ccccc2)CC1`, inactive: -3.43%; in that of `CCOc1ncccc1C(=O)NCC1(N2CCOCC2)CCCCC1`, inactive: -0.82%.

For the molecule `CCC(CO)(C(=O)OC1CN2CCC1CC2)c1ccccc1` (stereo not given), the inhibition is inactive: -4.41%. In the case of `COc1cc(OC)cc(C(=O)NCC2(N3CCOCC3)CCCCC2)c1`, the inhibition is inactive: 1.14%. Take `COc1ccc(C(=O)NCC2(N3CCCCC3)CCCCC2)c(OC)c1OC`: the inhibition was inactive: -1.45%. As for `CCOC(=O)N1CCC(Nc2ccc(OC)cc2)CC1`, the figure is inactive: -0.06%; as for `O=C(OC1CN2CCC1CC2)C1c2ccccc2Oc2ccccc21` (stereo not given), inactive: -2.94%. Regarding `O=C(NCC1(N2CCOCC2)CCCCC1)c1cc2ccccc2o1`, the inhibition is inactive: -1.2%.

In the case of `COc1ccc(NC2CCN(CCc3ccccc3)CC2)c(OC)c1`, the inhibition is inactive: 0.59%.

`O=C(NCC1(N2CCCCC2)CCCCC1)c1cccc([N+](=O)[O-])c1`: the inhibition is inactive: 0.49%. In the case of `N#CC1(Nc2ccccc2)CCN(CCc2ccccc2)CC1` it was inactive: -1.17%. As for `COc1ccc(NC2CCN(C(=O)OC(C)(C)C)CC2)cc1`, the figure is inactive: -2.57%. For the molecule `CN1CCN(CCOC(=O)C(O)(c2ccccc2)c2ccccc2)CC1`, the inhibition is inactive: -4.2%.

In the case of `O=C(NCC1(N2CCOCC2)CCCCC1)c1cc(=O)[nH]c2ccccc12`, the inhibition was inactive: -0.22%. In the case of `COc1ccc(CN(CCCl)CCCl)cc1Cl` it was inactive: -2.14%; in that of `CN(C)c1cccc(C(=O)NCC2(N3CCCCC3)CCCCC2)c1`, inactive: -2.45%. Turning to `CC(C)c1ccc(NC2CCN(C(=O)OC(C)(C)C)CC2)cc1`, the inhibition was inactive: -1.59%.
